Target: AT1 receptor (Rattus norvegicus, UniProt P25095)
Assay: IP1 production (HTRF), AT1-mediated Gαq/PLC pathway in CHO-AT1a-EGFP cells
Assay type: cell-based
Settings: read-out: KB, IP1 production; from Schild regression, n = 3

Amino acid sequences for entries named in this document (tags omitted).
UniProt P25095, whole entry, looked up: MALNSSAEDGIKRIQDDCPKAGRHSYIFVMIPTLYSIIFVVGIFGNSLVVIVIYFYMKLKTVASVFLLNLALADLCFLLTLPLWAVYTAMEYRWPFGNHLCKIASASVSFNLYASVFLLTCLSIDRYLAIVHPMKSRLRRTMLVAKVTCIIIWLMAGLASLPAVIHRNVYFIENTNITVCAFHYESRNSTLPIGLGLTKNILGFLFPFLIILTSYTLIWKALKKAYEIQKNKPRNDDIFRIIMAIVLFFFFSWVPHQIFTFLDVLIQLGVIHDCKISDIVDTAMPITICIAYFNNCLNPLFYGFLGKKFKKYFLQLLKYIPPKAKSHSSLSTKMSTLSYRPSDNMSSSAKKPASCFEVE

CC(C)[C@@H]1NC(=O)[C@H](Cc2c[nH]c3ccccc23)NC(=O)[C@H](Cc2ccccc2)NC(=O)[C@H](Cc2c[nH]cn2)NC(=O)[C@@H](N)CSSC[C@@H](C(=O)N2CCC[C@H]2C(=O)O)NC1=O [A-CTX-cMila] showed a Kb of 17.1 µM.
